Anti-infective test results gathered from many reports (values: NIAID ChemDB through PubChem).

Shared fields: whole-cell or culture tests; agent: HIV-1; cells: MT-2; endpoint: EC50

An empty or dashed field is not shown.

| smiles | strain or isolate | mutations | read by | value |
|---|---|---|---|---|
| Cc1ccc(OCCOc2ccc(-c3cnc(C)c([C@H](OC(C)(C)C)C(=O)O)c3N3CCC(C)(C)CC3)nc2)cc1 | NL4-3 | - | luminescence | 0.0015 µM |
| Nc1cccc(CO[C@H]2C(=O)Nc3ccc(Cl)cc3[C@@]2(C#CC2CC2)C(F)(F)F)c1 | RF | - | - | <0.138 µM |
| CC(=O)NS(=O)(=O)c1ccc(NC(=S)NCCc2ccccc2F)cc1 | IIIB | - | MTT | 1.23 µM |
| Nc1nc(Cl)c2ncn([C@H]3C=C[C@@H](CO)C3)c2n1 | - | - | cytopathic effect / XTT | 0.41 µg/mL |
| N#C/C=C/c1cc(Cl)cc(Oc2ccc(OCCN3CCOCC3)cc2OCCn2ccc(=O)[nH]c2=O)c1 | IIIB | - | MTT | 1.1 µM |
| C=C(C)[C@@H]1CC[C@]2(CNCC(OC)OC)CC[C@]3(C)[C@H](CC[C@@H]4[C@@]5(C)CC=C(c6ccc(C(=O)O)cc6)C(C)(C)[C@@H]5CC[C@]43C)[C@@H]12 | NL4-3 | - | - | <0.1 µM |
| CC(C)C1=C2[C@H]3CC[C@@H]4[C@@]5(C)CC[C@H](OC(=O)[C@H]6C[C@@H](C(=O)O)C6(C)C)C(C)(C)[C@@H]5CC[C@@]4(C)[C@]3(C)CC[C@@]2([C@@H](O)CNC(=O)c2cccc(Cl)c2)CC1=O | 92HT599 | - | p24 / ELISA | <1 µM |
| Cc1ccc(Nc2ncc(Cc3c(F)cccc3F)o2)cc1 | IIIB | - | MTT | 0.9 µM |
| CC(C)C1=C2[C@H]3CC[C@@H]4[C@@]5(C)CC[C@H](OC(=O)[C@H]6C[C@@H](C(=O)O)C6(C)C)C(C)(C)[C@@H]5CC[C@@]4(C)[C@]3(C)CC[C@@]2([C@@H](O)CNCC(C)(C)NC(=O)c2ccc(N)nc2)CC1=O | 92HT599 | - | p24 / ELISA | <1 µM |
| Cc1ccc(OCCNc2ccc(-c3cnc(C)c([C@H](OC(C)(C)C)C(=O)O)c3N3CCC(C)(C)CC3)nc2)cc1F | NL4-3 | - | luminescence | 0.0016 µM |
| COc1cnc(-n2cnc(C)n2)c2[nH]cc(C(=O)C(=O)N3CCc4c(-c5ccccn5)ncnc4N3C)c12 | LAI | - | luciferase / reporter gene | <0.5 µM |
| CCCO[C@H](C(=O)O)c1c(C)ncc(-c2ccc(OCC3CC3)cn2)c1N1CCC(C)(C)CC1 | NL4-3 | - | luminescence | 0.017 µM |
| CC(C)C1=C2[C@H]3CC[C@@H]4[C@@]5(C)CC[C@H](OC(=O)[C@H]6C[C@@H](C(=O)O)C6(C)C)C(C)(C)[C@@H]5CC[C@@]4(C)[C@]3(C)CC[C@@]2(CC(=O)NC(F)(CO)CNC(=O)c2ccc(Cl)cc2)CC1=O | 92HT599 | - | p24 / ELISA | <1 µM |
| O=C1Nc2ccc(Cl)cc2[C@@](C#CC2CC2)(C(F)(F)F)[C@H]1OCc1ccccc1 | RF | - | - | <0.071 µM |
| Cc1ccc(C2CC(C3CCC4C5CC=C6CC(O)CC[C@]6(C)C5CC[C@]34C)=NN2C(N)=S)cc1 | IIIB | - | MTT | >7.49 µM |
| COc1ccc2c(c1)OCCCCCN(C[C@@H](O)[C@H](Cc1ccccc1)NC(=O)O[C@H]1CO[C@H]3OCC[C@H]31)S2(=O)=O | LAI | - | MTT | 0.095 µM |
| Nc1ccc(CO[C@H]2C(=O)Nc3ccc(Cl)cc3[C@@]2(C#CC2CC2)C(F)(F)F)cc1 | - | RT-L100I | - | <0.049 µM |
| CC(C)C1=C2[C@H]3CC[C@@H]4[C@@]5(C)CC[C@H](OC(=O)[C@H]6C[C@@H](C(=O)O)C6(C)C)C(C)(C)[C@@H]5CC[C@@]4(C)[C@]3(C)CC[C@@]2([C@@H](O)CNCc2cccnc2N2CCOCC2)CC1=O | 92HT599 | - | p24 / ELISA | <1 µM |
| COc1ccc(S(=O)(=O)N(CC(C)C)C[C@@H](O)[C@@H]2Cc3ccc(cc3)OCCCCCCc3c(O)cccc3C(=O)N2)cc1 | LAI | - | MTT | 0.31 µM |
| Cc1cc(OCCN(C)c2ccc(-c3cnc(C)c([C@H](OC(C)(C)C)C(=O)O)c3N3CCC(C)(C)CC3)nc2)ccc1F | NL4-3 | - | luminescence | 0.004 µM |
| COc1ccc(S(=O)(=O)N(CC(C)C)C[C@@H](O)[C@H](Cc2ccccc2)NC(=O)O[C@H]2CCO[C@H]3COC[C@H]32)cc1 | LAI | - | MTT | 1 µM |
| COc1ccc(S(=O)(=O)N(CC(C)C)C[C@@H](O)[C@@H]2Cc3ccc(cc3)OCC/C=C/CCc3c(O)cccc3C(=O)N2)cc1 | LAI | - | MTT | 0.28 µM |
| Nc1ncnc2c1ncn2[C@@H]1O[C@H](COP(=O)(O)O[C@@H]2C[C@@H](COP(=O)(O)O[C@@H]3[C@H](O)[C@@H](CO)O[C@H]3n3cnc4c(N)ncnc43)O[C@H]2n2cnc3c(N)ncnc32)[C@@H](O)[C@H]1O | - | - | cytopathic effect / neutral red | 2.8 µM |
| CC(C)[C@H](NC(=O)c1ccc2ccccc2n1)C(=O)N[C@@H](Cc1ccccc1)[C@H](O)CN(NC(=O)OC(C)(C)C)C(C)C | Clinical isolate strain 237228 | - | cytopathic effect / RT activity / trypan blue | <5 µM |
| COc1cc(N=Nc2cc(S(=O)(=O)O)cc3cc(S(=O)(=O)O)cc(O)c23)c(C)cc1Nc1nc(Nc2ccccc2)nc(Nc2ccccc2)n1 | IIIB | - | cytopathic effect / XTT | 8.74 µM |
| Cn1nc(NS(C)(=O)=O)c2c(Cl)ccc(-n3c([C@H](Cc4cc(F)cc(F)c4)NC(=O)Cn4nc(C(F)F)c5c4C(F)(F)[C@@H]4C[C@H]54)nc4cc(-c5ccccc5OC(F)F)ccc4c3=O)c21 | NL4-3 | - | luciferase | 0.00011 µM |
| Nc1ccc(CO[C@H]2C(=O)Nc3ccc(Cl)cc3[C@@]2(C#CC2CC2)C(F)(F)F)cc1F | RF | - | - | <0.026 µM |
| Cc1nc2ccc(C(=O)NC(C)(C)CNC[C@H](O)[C@@]34CC[C@]5(C)[C@H](CC[C@@H]6[C@@]7(C)CC[C@H](OC(=O)[C@H]8C[C@@H](C(=O)O)C8(C)C)C(C)(C)[C@@H]7CC[C@]65C)C3=C(C(C)C)C(=O)C4)cc2[nH]1 | 92HT599 | - | p24 / ELISA | <1 µM |
| Cc1cc2nc3cn2c(c1[C@H](OC(C)(C)C)C(=O)O)N1CCC(C)(CC1)OCCCC[C@@H](C)Oc1cc(F)cc(F)c1-c1cccc-3c1 | - | - | luciferase | 0.004 µM |
| Cc1ccc(Nc2ncc(Cc3c(Cl)cccc3Cl)o2)cc1 | IIIB | - | MTT | 1 µM |
| CCCCN1C(=O)N(Cc2ccc3c(N)n[nH]c3c2)[C@H](Cc2ccccc2)[C@H](O)[C@@H](O)[C@H]1Cc1ccccc1 | RF | - | - | <1 µM |
| O=C1Nc2ccc(Cl)cc2[C@@](C#CC2CC2)(C(F)(F)F)[C@H]1OCc1ccncc1 | - | RT-L100I | - | <0.023 µM |
| O=C1Nc2ccc(Cl)cc2[C@@](C#CC2CC2)(C(F)(F)F)[C@H]1OCc1cccnc1 | RF | - | - | <0.02 µM |
| Cc1cc2nc3cn2c(c1[C@H](OC(C)(C)C)C(=O)O)N1CCC(C)(CC1)OC/C=C\C[C@@H](C)Oc1cc(F)cc(F)c1-c1cccc-3c1 | - | - | luciferase | 0.002 µM |
| Cc1ncc(-c2ccc(OC[C@@H]3CCOC3)cn2)c(N2CCC(C)(C)CC2)c1[C@H](OC(C)(C)C)C(=O)O | NL4-3 | - | luminescence | 0.0013 µM |
| OC[C@@H]1C=C[C@H](n2cnc3c(=S)nc[nH]c32)C1 | - | - | cytopathic effect / XTT | >10 µg/mL |
| Nc1ccn([C@@H]2O[C@H](COP(=O)(O)O[C@@H]3[C@H](O)[C@@H](COP(=O)(O)O[C@@H]4[C@H](O)[C@@H](COP(=O)(O)O)O[C@H]4n4ccc(N)nc4=O)O[C@H]3n3ccc(N)nc3=O)[C@@H](O)[C@H]2O)c(=O)n1 | - | - | cytopathic effect / neutral red | 30 µM |
| CC(C)N(C[C@H](O)[C@H](Cc1ccccc1)NC(=O)[C@H](CC(N)=O)NC(=O)c1ccc2ccccc2n1)NC(=O)C(C)(C)C | Clinical isolate strain 237228 | - | cytopathic effect / RT activity / trypan blue | <1 µM |
| COc1cc(N=Nc2cc(S(=O)(=O)O)cc3cc(S(=O)(=O)O)cc(O)c23)c(C)cc1Nc1nc(Nc2ncncc2OC)nc(Nc2ncncc2OC)n1 | IIIB | - | cytopathic effect / XTT | >80 µM |
| C[C@H]1/C=C/[C@@]2(C)CC[C@@H](C(C)(C)O)[C@@H]2[C@@H](O)C[C@](C)(O)/C=C/C1 | - | - | cytopathic effect / MTT | 6.16 µM |
| Nc1ncnc2c1ncn2[C@@H]1O[C@H]2CO[C@@H]1[C@H]2OCP(=O)(O)O | IIIB | - | cytopathic effect / XTT | >200 µM |
| Nc1ccc(CO[C@H]2C(=O)Nc3ccc(Cl)cc3[C@@]2(C#CC2CC2)C(F)(F)F)cc1 | RF | - | - | <0.021 µM |
| Clc1cccc(Cl)c1Cc1nnc(Nc2ccc(COCc3ccncc3)cc2)o1 | IIIB | - | MTT | 2.3 µM |
| CC(C)(C)OC(=O)NN(C[C@H](O)[C@H](Cc1ccccc1)NC(=O)[C@H](CC(N)=O)NC(=O)c1ccc2ccccc2n1)C1CCCCC1 | Clinical isolate strain 237228 | - | cytopathic effect / RT activity / trypan blue | <0.1 µM |
| CC(C)C1=C2[C@H]3CC[C@@H]4[C@@]5(C)CC[C@H](OC(=O)[C@H]6C[C@@H](C(=O)O)C6(C)C)C(C)(C)[C@@H]5CC[C@@]4(C)[C@]3(C)CC[C@@]2(CC(=O)NCC(C)(CCCCN)NC(=O)c2ccc(Cl)cc2)CC1=O | 92HT599 | - | p24 / ELISA | <1 µM |
| Cc1ncc(-c2ccc(OCCN3CCCCC3)cn2)c(N2CCC(C)(C)CC2)c1[C@H](OC(C)(C)C)C(=O)O | NL4-3 | - | luminescence | 0.0715 µM |
| O=C(O)C(O)c1ccccc1 | IIIB | - | cytopathic effect | 6.5 µg/mL |
| Clc1ccc(Nc2nnc(Cc3c(Cl)cccc3Cl)o2)cc1 | IIIB | - | MTT | 0.88 µM |
| COc1cnc(-n2cnc(C)n2)c2[nH]cc(C(=O)C(=O)N3CC/C(=C(\C#N)c4ccccc4)CN3)c12 | LAI | - | luciferase / reporter gene | 0.00029 µM |
| O=C1Nc2ccc(Cl)cc2[C@@](C#CC2CC2)(C(F)(F)F)[C@H]1OCc1cccc(F)c1 | RF | - | - | <0.201 µM |
| COc1cnc(-n2cnc(C)n2)c2[nH]cc(C(=O)C(=O)N3CC/C(=C(\C#N)c4ccccc4)CN3C)c12 | LAI | - | luciferase / reporter gene | <0.5 µM |
| O=c1nccc(NC(=S)NCCc2ccccc2F)[nH]1 | IIIB | - | MTT | 88 µM |
| COP(=O)(c1cc(C)cc(CCC#N)c1)c1c(C(N)=O)[nH]c2ccc(Cl)cc12 | Clinical isolate | K103N/Y181C | - | 0.0057 µM |
| Cc1cccc(NC(=S)NCCc2ccccc2F)n1 | IIIB | - | MTT | 50 µM |
| COc1ccc(C(=O)NC(C)(C)CNC[C@H](O)[C@@]23CC[C@]4(C)[C@H](CC[C@@H]5[C@@]6(C)CC[C@H](OC(=O)[C@H]7C[C@@H](C(=O)O)C7(C)C)C(C)(C)[C@@H]6CC[C@]54C)C2=C(C(C)C)C(=O)C3)cc1 | 92HT599 | - | p24 / ELISA | <1 µM |
| Nc1ncnc2c1ncn2[C@H]1C=C[C@@H](CO)C1 | - | - | cytopathic effect / XTT | 2.3 µg/mL |
| COc1cc(CCNC(=S)Nc2cccc(C)n2)cc(OC)c1OC | IIIB | - | MTT | 8.15 µM |
| CC(C)[C@H](NC(=O)OCc1ccccn1)C(=O)N[C@@H](Cc1ccccc1)C(O)CN1CC2CCCCC2CN1C(=O)OC(C)(C)C | Clinical isolate strain 237228 | - | cytopathic effect / RT activity / trypan blue | <1 µM |
| Nc1ccc(CO[C@H]2C(=O)Nc3ccc(Cl)cc3[C@@]2(C#CC2CC2)C(F)(F)F)cc1F | RF | - | - | <0.026 µM |
| Clc1cccc(Nc2nnc(Cc3c(Cl)cccc3Cl)o2)c1 | IIIB | - | MTT | 4.3 µM |
| O=C1Nc2ccc(Cl)cc2[C@@](C#CC2CC2)(C(F)(F)F)[C@H]1O | RF | - | - | <0.637 µM |
| CN1CN([C@H]2C[C@H](O)[C@@H](CO)O2)C(=O)N=C1N | LAI | - | - | 10 µM |
| O=C1Nc2ccc(Cl)cc2[C@@](C#CC2CC2)(C(F)(F)F)[C@H]1O | RF | - | - | <0.637 µM |
| COc1ccc(OC)c(CCNC(=S)Nc2ccnc(=O)[nH]2)c1F | IIIB | - | MTT | 65.2 µM |

Repeating the first 4 entries:

smiles,strain or isolate,mutations,read by,value
Cc1ccc(OCCOc2ccc(-c3cnc(C)c([C@H](OC(C)(C)C)C(=O)O)c3N3CCC(C)(C)CC3)nc2)cc1,NL4-3,-,luminescence,0.0015 µM
Nc1cccc(CO[C@H]2C(=O)Nc3ccc(Cl)cc3[C@@]2(C#CC2CC2)C(F)(F)F)c1,RF,-,-,<0.138 µM
CC(=O)NS(=O)(=O)c1ccc(NC(=S)NCCc2ccccc2F)cc1,IIIB,-,MTT,1.23 µM
Nc1nc(Cl)c2ncn([C@H]3C=C[C@@H](CO)C3)c2n1,-,-,cytopathic effect / XTT,0.41 µg/mL

Rows are shuffled and stem from different studies. ECn: concentration that inhibits the pathogen or its effect by n%.